Results of unrelated studies side by side (data: NIAID ChemDB).

Common to all: growth or infection tests; agent: HIV-1; cell line: MT-4; method: cytopathic effect / MTT; measure: fold resistance

Conditions beyond the fields shown may differ between rows.

Cc1c(C(=O)N[C@@H](Cc2ccccc2)[C@H](O)CN(CC(C)C)S(=O)(=O)c2ccc3nc(N)oc3c2)ccc2c1OCO2 ; changes: PR-L010F M046I M071V I084V ; strain or isolate: LAI ; result: 214
Cc1cn([C@H]2C=C[C@@H](CO)O2)c(=O)[nH]c1=O ; changes: RT-K65R/T215Y ; strain or isolate: HXB2 ; result: 0.9
CCc1c(C)[nH]c(=O)c(Br)c1Oc1cc(C)cc(C)c1 ; changes: RT-K103N Y181C ; result: 79
Cn1c2ccccc2c2c1cc(C#N)c(=O)n2-c1ccc([N+](=O)[O-])cc1 ; changes: RT-L100I K103N ; strain or isolate: C ; result: 3
CCc1c(C)[nH]c(=O)c(Sc2ccccc2)c1Oc1cc(C)cc(C)c1 ; changes: RT-Y181C ; result: 16
CCCc1c(Cc2cc(C)cc(C)c2)n(COC2C=CCCC2)c(=O)[nH]c1=O ; changes: RT-Y181C ; strain or isolate: NNRTI-resistant (RT Y181C) N119 ; result: >3333
CCc1c(C)[nH]c(=O)c(SC)c1Oc1cc(C)cc(C)c1 ; changes: RT-L100I K103N ; result: 32
Cc1c(N)cccc1C(=O)N[C@@H](Cc1ccccc1)[C@H](O)CN(CC(C)C)S(=O)(=O)c1ccc2nc(N)oc2c1 ; changes: PR-L010F M046I M071V I084V ; strain or isolate: LAI ; result: 4.3
CCCc1c(Cc2cc(C)cc(C)c2)n(COC/C(C)=C/c2ccccc2)c(=O)[nH]c1=O ; changes: RT-Y181C ; strain or isolate: NNRTI-resistant (RT Y181C) N119 ; result: 700
CCc1c(C)[nH]c(=O)c(C2CC2)c1Oc1cc(C)cc(C)c1 ; changes: RT-L100I ; result: 6
CCCc1c(Cc2ccccc2)n(COC/C=C/c2ccccc2)c(=O)[nH]c1=O ; changes: RT-K103N Y181C ; strain or isolate: NNRTI-resistant (RT K103N Y181C) A17 ; result: >10000
Cc1cc(Br)ccc1C(=O)N[C@@H](Cc1ccccc1)[C@H](O)CN(CC(C)C)S(=O)(=O)c1ccc2nc(N)oc2c1 ; changes: PR-L010F M046I M071V I084V ; strain or isolate: LAI ; result: 13.5
CCCc1c(Cc2cc(C)cc(C)c2)n(COC/C=C/c2ccccc2)c(=O)[nH]c1=O ; changes: RT-Y181C ; strain or isolate: NNRTI-resistant (RT Y181C) N119 ; result: 100
Cc1cc(C#N)cc(C)c1OCC(=O)N[C@@H](Cc1ccccc1)[C@H](O)CN(CC(C)C)S(=O)(=O)c1ccc2nc(N)oc2c1 ; changes: PR-L010F M046I M071V I084V ; strain or isolate: LAI ; result: 35
N#Cc1cc2[nH]c3ccccc3c2n(-c2ccc([N+](=O)[O-])cc2)c1=O ; changes: RT-I31L L100I K103N E138G Y181C L214F ; strain or isolate: J ; result: 5
CCOCn1c(Cc2ccccc2)c(C(C)C)c(=O)[nH]c1=O ; changes: RT-Y181C ; strain or isolate: NNRTI-resistant (RT Y181C) N119 ; result: 2200

Fold resistance: result on the changed form divided by that on wild type.